Measurements as given in patent publication US8846684B2 (priority 2011, dated 2014).

Test system: neuroadapted Sindbis virus (NSV)
Experiment: Acute NSV encephalomyelitis in mice

C[C@@H](NC(=O)C1CCN(C(=O)c2cc3ccccc3n2Cc2ccc(Cl)cc2)CC1)c1ccccc1 [CCG 203926, (R)-1-(1-(4-chlorobenzyl)-1H-indole-2-carbonyl)-N-(1-phenylethyl)piperidine-4-carboxamide]
protection from lethal NSV infection (survival) (30 mg/kg twice daily intraperitoneal, beginning 12 hours after viral challenge, 7-day period, vs untreated, vehicle or 9g, FIG. 2A): significantly protected
development of severe hind limb paralysis (30 mg/kg twice daily, FIG. 2B): conferred benefit
viral titers in the brains (plaque titration) (1-4 days after infection, compared to 9g or vehicle, FIG. 3A): lower
density of preserved motor neuron axons in lumbar ventral nerve roots (14 days post-infection, compared to 9g or vehicle, FIG. 5B): enhanced cell survival
hippocampal neuronal injury (fluorojade-positive neurons) (compared to 9g or vehicle, FIG. 4B): reduced neuronal injury
pilot survival assays, dose comparison (doses of 10 mg/kg and 30 mg/kg): the higher concentration was more effective
